Measured values from several laboratories, pooled; numbers as filed in NIAID ChemDB.

All rows: whole-cell or culture tests

Lines come from different laboratories, so protocols vary.

SMILES	agent	strain or isolate	changes	cells	method	measure	tested at	value
Nc1nc(=O)n(CC(CO)OCP(=O)(O)O)cc1-c1ccccc1	Hepatitis B virus	-	-	HB611	-	EC50	-	200 µM
COc1ccc2c(O[C@@H]3C[C@H]4C(=O)N[C@]5(C(=O)NS(=O)(=O)C6CC6)C[C@H]5/C=C\CCCCN(C)C(=O)[C@@H]4C3)cc(-c3nc(C(C)C)cs3)nc2c1C	Hepatitis C virus	1b	-	Huh7	luciferase / replicon	inhibition	0.012 µM	96.91%
Nc1ncnc2c1ncn2CCOCP(=O)(O)O	Hepatitis B virus	Genotype D	-	HepaRG	PCR	inhibition	1 µM	50–80%
C=CC(=O)NCC(=O)N1C[C@H](Oc2nccc3ccc(Br)cc23)C[C@H]1C(=O)N[C@]1(C(=O)NS(=O)(=O)C2CC2)C[C@H]1C=C	Hepatitis C virus	1b A156S	-	-	luciferase	EC50	-	0.042 µM
CCC(CCC(C)C1CCC2C3C[C@@H](O)[C@@]4(O)C[C@@H](O)CCC4(C)C3CCC12C)C(C)C	Hepatitis B virus	-	-	HepG2 2.2.15	antigen	inhibition	50 µg/mL	37.6%
Nc1nc2c(ncn2CCC(CO)CO)c(=O)[nH]1	Hepatitis B virus	Mutation L526M	-	HepG2	-	EC50	-	103 µM
CC(C)OC(=O)[C@H](C)N[P@](=O)(OC[C@H]1O[C@@](C#N)(c2ccc3c(N)ncnn23)[C@](C)(O)[C@@H]1OC(=O)C(C)C)Oc1ccccc1	Hepatitis C virus	1b Con1	T54A	1C	luciferase	fold resistance	-	0.81
COC(=O)CCC1COP(=O)(CO[C@H](C)Cn2cnc3c(N)ncnc32)OC1	Hepatitis B virus	Genotype D	-	PHH	PCR	inhibition	1 µM	>80%
CCCCC1=NC(N)=C2NC=NC2(O)N1OCP(=O)(O)O	Hepatitis B virus	-	-	HB611	-	EC50	-	45 µM
COC(=O)N[C@H](C(=O)N1CCC[C@H]1c1ncc(-c2ccc(-c3ccc(-c4cnc([C@@H]5CCCN5C(=O)[C@@H](NC(=O)OC)C(C)C)[nH]4)cc3)cc2)[nH]1)C(C)C	Hepatitis C virus	Con1	Y93H	1C	luciferase	fold resistance	-	44
C[C@H](Cn1cnc2c(N)ncnc21)OCP1(=O)OCC(CC(=O)OC2CCCC2)CO1	Hepatitis B virus	Genotype D	-	HepaRG	PCR	inhibition	1 µM	≤30%
Clc1ccc(Cn2c(CN3CCCC3)nc3ccccc32)cc1	Hepatitis C virus	1b Con1	-	Huh7	luciferase / replicon	inhibition	7.5 µM	62.12%
CC[C@H]1C[C@]1(NC(=O)[C@@H]1C[C@@H]2CN1C(=O)[C@H](C(C)(C)C)NC(=O)OCC(C)(C)CCCCc1cccc3c1CN(C3)C(=O)O2)C(=O)NS(=O)(=O)C1CC1	Hepatitis C virus	SA13	-	Huh7.5	antigen	EC50	-	0.022 µM
Cc1nc(N)c2ncn(CC(CO)OCP(=O)(O)O)c2n1	Hepatitis B virus	-	-	HB611	-	EC50	-	200 µM
CCOC(=O)CC1COP(=O)(CO[C@H](C)Cn2cnc3c(NC(=O)C(C)C)ncnc32)OC1	Hepatitis B virus	Genotype D	-	HepaRG	PCR	inhibition	1 µM	≤30%
Cc1nc(N)c2[nH]c(=S)n(CC(CO)OCP(=O)(O)O)c2n1	Hepatitis B virus	-	-	HB611	-	EC50	-	32 µM
CO[C@@H]1[C@H](O)[C@@H](COP(=O)(O)OP(=O)(O)OP(=O)(O)O)O[C@H]1n1ccc(N)nc1=O	Hepatitis C virus	-	-	HepG2-T5B	MTT	inhibition	30 µg/mL	51.83%
CC(OCn1cnc2cnc(N)nc21)OCP(=O)(O)O	Hepatitis B virus	-	-	HB611	-	EC50	-	45 µM
CC(C)(CO)C(=O)SCCOP(=O)(NCc1ccccc1)OC[C@H]1O[C@@H](n2cnc3c(=O)[nH]c(N)nc32)[C@](C)(O)[C@@H]1O	Hepatitis C virus	GT1b	L28T	Replicon cells	replicon	fold resistance	-	0.51
Nc1nc2ncn(CC(CO)OCP(=O)(O)O)c2c(=O)[nH]1	Hepatitis B virus	-	-	HB611	-	EC50	-	>400 µM
Nc1ncnc2c1ncn2CCOCP(=O)(O)O	Hepatitis B virus	Mutation M552V	-	Huh7	-	EC50	-	4.9 µM
Nc1nc2c(ncn2C[C@H](CO)OCP(=O)(O)O)c(=O)[nH]1	Hepatitis B virus	-	-	HB611	-	EC50	-	<16 µM
C[C@@]1(O)[C@H](O)[C@@H](CO)O[C@H]1n1ccc2c(N)ncnc21	Hepatitis C virus	-	-	Hep3B-T5B	MTT	inhibition	50 µg/mL	7.84%

Fold resistance: result on the changed form divided by that on wild type. a–b is a range or a potency band. An empty or dashed field is not shown. Percent inhibition refers to the dose given; in toxicity tests it is the harm to the cells. ECn is the concentration giving n% inhibition of infection, replication or growth.